Anti-infective test results gathered from many reports (values: NIAID ChemDB through PubChem).

Shared fields: target-level tests; agent: Pneumocystis carinii; protein: DHFR; read-out: IC50

ICn: concentration for n% inhibition. Neighbouring rows are from separate reports.

compound,result
Nc1nc(N)c2cc(NC3c4ccccc4C=Cc4ccccc43)ccc2n1,13 µM
O=[N+]([O-])c1ccc(-c2cc(Cl)c3cc(S(=O)(=O)F)ccc3n2)cc1,41 µM
COc1ccc(-c2nc3nc(N)nc(N)c3[nH]2)c2ccccc12,>13 µM
COc1ccc(C(=O)c2cc(OC)c(OC)c(OC)c2)cc1OC,100 µM
COc1cc(Cc2cnc(N)nc2N)cc(OC)c1NC(=O)CC(=O)O,100 µM
Cc1cc(NC(=O)Oc2ccc3c(C)cc(=O)oc3c2)cc(Br)c1NC(=O)Oc1ccc2c(C)cc(=O)oc2c1,60 µM
COc1cc(Cc2cnc(N)nc2N)cc(OCCC(CCC(=O)O)C(=O)O)c1Br,0.04 µM
Cc1cc2c(cc1C)-c1c(N)nc(N)nc1CC2,0.59 µM
O=C(O)COCC(=O)NNC(=O)c1ccncc1,>100 µM
COc1cc(CN2CCc3nc(N)nc(N)c3C2)c(Br)c(OC)c1OC,0.51 µM
C=C(C)c1c(OCC)cc(Cc2cnc(N)nc2N)cc1OCC,2.5 µM
COc1cc(CCCN2CCc3nc(N)nc(N)c3C2)cc(OC)c1OC,9.3 µM
Cc1cc(C(=O)O)cc(C)c1N(C)Cc1cnc2nc(N)nc(N)c2n1,0.19 µM
COc1ccc(-c2nc3nc(N)nc(N)c3[nH]2)c(OC)c1,>14 µM
COc1ccc(NCc2cnc3nc(N)nc(N)c3c2C)c2ccccc12,8.2 µM
CC1(C)N=C(N)N=C(N)N1c1cccc(CCCCOc2ccccc2)c1,0.27 µM
COCCCOc1cc(Cc2cnc(N)nc2N)cc(-c2ccccc2)c1,12.2 µM
c1ccc(Oc2nc(Oc3ccccc3)nc(Oc3ccccc3)n2)cc1,~500 µM
CN(Cc1cnc2nc(N)nc(N)c2n1)c1ccc(C(=O)N[C@H](CCCCN)C(=O)O)cc1,>8 µM
O=C(O)c1c(Cl)c(Cl)c(Cl)c(Cl)c1C(=O)Nc1cccc(C(F)(F)F)c1,>100 µM
CN(Cc1cnc2nc(N)nc(N)c2n1)c1ccc(C(=O)N[C@@H](CCC(=O)O)C(=O)O)c2ccccc12,0.00019 µM
COc1cc(Cc2cnc(N)nc2N)cc(OCCNS(=O)(=O)c2ccc(N)cc2)c1Br,0.97 µM
O=S(=O)(O)c1cc(O)c(N=Nc2cccc3ccc(O)cc23)c2ccccc12,80 µM
COc1cc(-c2nc3nc(N)nc(N)c3[nH]2)cc(OC)c1OC,>59.4 µM
CN(C)C(=O)c1cccc(COc2ccc(N3C(N)=NC(N)=NC3(C)C)cc2Cl)c1,0.021 µM
CCc1nc(N)nc(N)c1-c1ccc(N2CCCCC2)c([N+](=O)[O-])c1,5.05 µM
Nc1ncc(Cc2ccc(OCc3ccccc3)cc2)c(N)n1,16 µM
Cc1c(CNc2ccc(Cl)c(C(=O)NC(CC(=O)O)C(=O)O)c2)ccc2nc(N)nc(N)c12,0.0054 µM
CC1(C)N=C(N)N=C(N)N1c1cccc(OCCCOc2ccc(N)cc2)c1,0.17 µM
C=C(C)c1c(OC)cc(Cc2cnc(N)nc2N)cc1OC,24 µM
Nc1nc(N)c2nc(CN3c4ccccc4CCc4ccccc43)cnc2n1,1.4 µM
CN(Cc1cnc2nc(N)nc(N)c2n1)c1ccc(C(=O)O)cc1,0.94 µM
O=C1C=CC(=Nc2cc(Cl)c(O)c(Cl)c2)C=C1Cl,95 µM
CC1(C)N=C(N)N=C(N)N1c1ccc(OCCOc2ccc(N)cc2)cc1,0.47 µM
Nc1nc(N)c2nc(CN(CCO)c3ccc(C(=O)NC(CCC(=O)O)C(=O)O)cc3)cnc2n1,0.00035 µM

Repeating the first 5 entries:

Nc1nc(N)c2cc(NC3c4ccccc4C=Cc4ccccc43)ccc2n1 ; result: 13 µM
O=[N+]([O-])c1ccc(-c2cc(Cl)c3cc(S(=O)(=O)F)ccc3n2)cc1 ; result: 41 µM
COc1ccc(-c2nc3nc(N)nc(N)c3[nH]2)c2ccccc12 ; result: >13 µM
COc1ccc(C(=O)c2cc(OC)c(OC)c(OC)c2)cc1OC ; result: 100 µM
COc1cc(Cc2cnc(N)nc2N)cc(OC)c1NC(=O)CC(=O)O ; result: 100 µM